Data published in patent publication US8420311B2, “Method to block the infection by flaviviruses, molecules and uses” (Centro de Ingenieria Genetica y Biotecnologia, priority 2006, dated 2013).

System: DV
Assay: Inhibition of the infection of Vero cells with DV by pre-incubation of the virus with A2M
Format: cell-based, dengue virus
Conditions: increasing concentrations, 1 h at 25° C. (FIG. 20A)
Procedure: FIG. 20. Inhibition of the infection of Vero cells with DV by pre-incubation with A2M. Viral preparations were incubated 1 h at 25° C. (A and C) or the indicated time (B) with the proteins i. e. activated A2M (A2Mact), non-activated A2M (A2M no act) and a non-related protein (NR). The mixtures of the proteins with the virus were added to monolayers of Vero cells and incubated for 1 h at 37° C. The cell monolayers were washed to eliminate non-bound virus. Next, medium MEM supplemented with non-essential amino acids and 1% FBS, 1% CMC was added and the cells were incubated for 5 days at 37° C. in a CO2 incubator. To visualize the viral plaques, Vero cells were stained using Naphtol Blue Black. All experimental points were performed on duplicates.
To obtain further evidences of the interaction of DV with A2M, the two variants of the protein i.e. activated and non-activated were used in assays of inhibition of infection of Vero cells. The viral preparation was incubated with solutions of activated A2M of higher concentrations than the physiological concentrations reached by this variant of the protein. Solutions of equimolar concentration of non-activated A2M and a non-related protein were used as negative controls. […]

B1: activated A2M: purified human A2M activated by incubation with methylamine (protein)
chain: SVSGKPQYMVLVPSLLHTETTEKGCVLLSYLNETVTVSASLESVRGNRSLFTDLEAENDVLHCVAFAVPKSSSNEEVMFLTVQVKGPTQEFKKRTTVMVKNEDSLVFVQTDKSIYKPGQTVKFRVVSMDENFHPLNELIPLVYIQDPKGNRIAQWQSFQLEGGLKQFSFPLSSEPFQGSYKVVVQKKSGGRTEHPFTVEEFVLPKFEVQVTVPKIITILEEEMNVSVCGLYTYGKPVPGHVTVSICRKYSDASDCHGEDSQAFCEKFSGQLNSHGCFYQQVKTKVFQLKRKEYEMKLHTEAQIQEEGTVVELTGRQSSEITRTITKLSFVKVDSHFRQGIPFFGQVRLVDGKGVPIPNKVIFIRGNEANYYSNATTDEHGLVQFSINTTNVMGTSLTVRVNYKDRSPCYGYQWVSEEHEEAHHTAYLVFSPSKSFVHLEPMSHELPCGHTQTVQAHYILNGGTLLGLKKLSFYYLIMAKGGIVRTGTHGLLVKQEDMKGHFSISIPVKSDIAPVARLLIYAVLPTGDVIGDSAKYDVENCLANKVDLSFSPSQSLPASHAHLRVTAAPQSVCALRAVDQSVLLMKPDAELSASSVYNLLPEKDLTGFPGPLNDQDDEDCINRHNVYINGITYTPVSSTNEKDMYSFLEDMGLKAFTNSKIRKPKMCPQLQQYEMHGPEGLRVGFYESDVMGRGHARLVHVEEPHTETVRKYFPETWIWDLVVVNSAGVAEVGVTVPDTITEWKAGAFCLSEDAGLGISSTASLRAFQPFFVELTMPYSVIRGEAFTLKATVLNYLPKCIRVSVQLEASPAFLAVPVEKEQAPHCICANGRQTVSWAVTPKSLGNVNFTVSAEALESQELCGTEVPSVPEHGRKDTVIKPLLVEPEGLEKETTFNSLLCPSGGEVSEELSLKLPPNVVEESARASVSVLGDILGSAMQNTQNLLQMPYGCGEQNMVLFAPNIYVLDYLNETQQLTPEVKSKAIGYLNTGYQRQLNYKHYDGSYSTFGERYGRNQGNTWLTAFVLKTFAQARAYIFIDEAHITQALIWLSQRQKDNGCFRSSGSLLNNAIKGGVEDEVTLSAYITIALLEIPLTVTHPVVRNALFCLESAWKTAQEGDHGSHVYTKALLAYAFALAGNQDKRKEVLKSLNEEAVKKDNSVHWERPQKPKAPVGHFYEPQAPSAEVEMTSYVLLAYLTAQPAPTSEDLTSATNIVKWITKQQNAQGGFSSTQDTVVALHALSKYGAATFTRTGKAAQVTIQSSGTFSSKFQVDNNNRLLLQQVSLPELPGEYSMKVTGEGCVYLQTSLKYNILPEKEEFPFALGVQTLPQTCDEPKAHTSFQISLSVSYTGSRSASNMAIVDVKMVSGFIPLKPTVKMLERSNHVSRTEVSSNHVLIYLDKVSNQTLSLFFTVLQDVPVRDLKPAIVKVYDYYETDEFAIAEYNAPCSKDLGNA
Question: For B1, which “effect of pre-incubation of the virus on viral infection” value is on record?
Answer: blocks viral infection in a dose-dependent manner
